PubChem BioAssay AID1224833 | University of Georgia – 2016

Screen: 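Human genes whose knock-down alters rotavirus replication in monkey cells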 (primary screen)
Cells: monkey MA104 kidney cells
Reagent: siRNA pool against human genes, 50 nM
Duration: 48 h knock-down before infection; read 24 h after infection
Treatment: infection with rotavirus strain RV3 two days after transfection; infectious dose for this stage not given
Measured: 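Rotavirus antigen per well by fluorescent immunoassay, normalised to non-targeting control wells on each plate and given as a standard z-score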
Reading the numbers: z-score vs non-targeting control: higher = more rotavirus replication than with non-targeting control
Rule for the call: In these data the active calls have z-score vs non-targeting control at about -1 or lower, or at about 1 or higher
Meaning of the calls: active = z-score beyond 1 either way; inactive = z-score within 1 of zero
In all, the deposit lists about 12,000 reagents; this is a random part of them. About 5,600 of all reagents (46%) count as active. 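Active calls cover z-scores past 1 in both directions, so they include lowered as well as raised rotavirus replication.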 A number with no mark means an inactive call. No sequences are given here.

Gene | z-score vs non-targeting control
SLC24A3 | 0.417
STAG2 | -0.453
CPEB2 | -0.96
RORC | -2.57 (active)
HINT2 | -1.19 (active)
STAT1 | 2.15 (active)
TMED3 | 0.243
MBD1 | -0.875
SGTA | -1.04 (active)
RARRES2 | 0.524
MED30 | -1.07 (active)
CFAP20 | -1.29 (active)
PYCR1 | 0.527
MED13L | 1.19 (active)
MVP | -0.398
OR4F16 | -2.21 (active)
ZNF77 | 0.556
ARL2BP | -0.554
FOXR2 | 0.897
REC8 | 0.0443
CLPSL2 | 0.622
BCL3 | 3.3 (active)
PNPLA6 | 1.26 (active)
STAMBP | -2.32 (active)
MEMO1 | -1.13 (active)
EMG1 | -2.23 (active)
GLTP | 2.88 (active)
TRPT1 | 0.48
NPHP1 | 0.175
POLR2D | 1.08 (active)
BLM | -0.663
VPS13D | -0.348
TEAD2 | -0.073
ZNF157 | -0.168
STIM2 | -1.28 (active)
CALHM3 | -1.06 (active)
ZNF140 | -0.488
LAMP1 | -1.09 (active)
GTF3C1 | -0.921
XKR6 | -2.49 (active)
VTI1A | -0.622
KRT37 | 0.624
GRM8 | 1.04 (active)
HNRNPR | 0.305
ADGRL3 | -0.98
CARF | -1.24 (active)
LAMTOR3 | 2.52 (active)

Continued (8 carried over from the part before).
Gene | z-score vs non-targeting control
XKR6 | -2.49 (active)
VTI1A | -0.622
KRT37 | 0.624
GRM8 | 1.04 (active)
HNRNPR | 0.305
ADGRL3 | -0.98
CARF | -1.24 (active)
LAMTOR3 | 2.52 (active)
OR10T2 | -0.59
MAPK1IP1L | 0.391
ARHGEF15 | -2.52 (active)
COL6A3 | -0.654
MATN1 | 0.64
SPP1 | -0.744
CCL23 | -0.798
RELB | -0.619
KRTAP9-4 | -0.312
TMCC2 | 0.404
EXOC8 | -0.54
NXF5 | -2.35 (active)
DCP1B | 0.289
TECTA | -0.878
IL17D | 0.646
PGR | -2.08 (active)
FAM217A | -0.0456
SPRR1A | -0.899
RPS29 | -0.48
MYCT1 | -0.418
RIDA | -0.0156
SP7 | -0.805
CSN2 | -0.891
RAB3GAP1 | 0.178
POLR2K | 0.863
LRRN2 | 2.44 (active)
SH3BP2 | 2.12 (active)
URB1 | -0.527
